A mixed list of measured activities; the numbers were collected in NIAID ChemDB.

Shared fields: toxicity to cultured cells; cell line: Huh7.5.1; read by: MTT; read-out: CC50

Lines come from different laboratories, so protocols vary. CCn is the concentration with n% toxicity to the cells.

| structure | result |
|---|---|
| CCC[C@H](NC(=O)[C@@H]1[C@H]2CCC[C@H]2CN1C(=O)[C@@H](NC(=O)[C@@H](NC(=O)c1cnccn1)C1CCCCC1)C(C)(C)C)C(=O)C(=O)NC1CC1 | >10 µM |
| NC(=O)c1nn(Cc2cccc(NC(=O)c3ccccc3F)c2)c2ccccc12 | >10 µM |
| CN1c2cc3c(cc2N=C(c2ccc(C(=O)O)cc2)c2ccccc21)C(C)(C)CCC3(C)C | 20 µM |
| CC(C)(C)Oc1cccc2nc(N)nc(N)c12 | >10 µM |
| CC1=C(/C=C/C(C)=C\C=C\C(C)=C\C(=O)O)C(C)(C)CCC1 | >30 µM |
| CC1(C)CC[C@]2(C(=O)O)CC[C@]3(C)C(=CC[C@@H]4[C@@]5(C)CC[C@H](O)C(C)(C)[C@@H]5CC[C@]43C)[C@@H]2C1 | 89.2 µg/mL |
| Cc1cc2c(cc1-c1cc(/C=C/C(=O)O)ccc1O)C(C)(C)CCC2(C)C | >30 µM |
| COc1ccc(C(=O)Nc2cccc(Cn3nc(C(N)=O)c4ccccc43)c2)cc1 | 28.42 µM |
| COc1ccc(-c2ccc3cc(C(=O)O)ccc3c2)cc1C12CC3CC(CC(C3)C1)C2 | 20 µM |
| NC(=O)c1nn(Cc2ccc(NC(=O)c3ccccc3)cc2)c2ccccc12 | >10 µM |
| CC(C)(C)OC(=O)N[C@@H]1CCCCC/C=C\[C@@H]2C[C@@]2(C(=O)NS(=O)(=O)C2CC2)NC(=O)[C@@H]2C[C@@H](OC(=O)N3Cc4cccc(F)c4C3)CN2C1=O | 133.5 µg/mL |
| NC(=O)c1nn(Cc2cccc(NC(=O)c3ccc(F)cc3)c2)c2ccccc12 | >10 µM |
| COc1ccc(C(=O)Nc2cccc(Cn3nc(C(N)=O)c4ccccc43)c2)cc1 | >10 µM |
| NC(=O)c1nn(Cc2ccc(NC(=O)C3CC3)cc2)c2ccccc12 | >10 µM |
| CCCCCCCOc1cc2c(cc1/C(C)=C/c1ccc(C(=O)O)cc1)C(C)(C)CCS2(=O)=O | >30 µM |

A second listing of 2 rows from above:

structure | result
NC(=O)c1nn(Cc2cccc(NC(=O)c3ccc(F)cc3)c2)c2ccccc12 | >10 µM
COc1ccc(C(=O)Nc2cccc(Cn3nc(C(N)=O)c4ccccc43)c2)cc1 | 28.42 µM